Assay results published in patent publication US11773379B2, “Enzymes and reagents for measurement of short chain fatty acids” (SYSMEX CORPORATION, priority 2018, dated 2023).

System: BKII
Assay: Linearity test of butyric acid measurement using butyrate kinase
Format: biochemical, Acetoanaerobium sticklandii

CCCC(=O)O [Butyric acid]
Abs 340 nm (butyric acid 0.156 mM): 0.0184
Abs 340 nm (butyric acid 0.313 mM): 0.0370
Abs 340 nm (butyric acid 0.625 mM): 0.0740
Abs 340 nm (butyric acid 1.250 mM): 0.1481
Abs 340 nm (butyric acid 2.500 mM): 0.2938
Abs 340 nm (butyric acid 5.000 mM): 0.5834
Abs 340 nm (butyric acid 10.000 mM): 1.1491
